Our source for the Binding signal (MFI) values is patent US20240043504A1.

Values joined by “and” are separate entries in the source; they are usually repeats but may differ in a detail not shown here. Equal entries are not always repeated.

The experiment deals with UNMODIFIED-SARS-CoV-2 Spike Protein (RBD)(R319-F541).mmH (SARS-CoV-2).

“Human_ACE2 (from UniProt Q9BYF1 18-740) (receptor; other documents disagree on this pair)”: the Binding signal (MFI) is 5730 MFI and 10700 MFI and 9270 MFI.
